Assay results as given in PMC9563714.
Construct, isoform or probe ends are uncertain for at least one entry. Where a protein sequence is shown, tags need not be part of it.

Biological target: T1, Vfr (Pseudomonas aeruginosa UCBPP-PA14) (UniProt P55222)
T1 sequence (looked up, limits assumed): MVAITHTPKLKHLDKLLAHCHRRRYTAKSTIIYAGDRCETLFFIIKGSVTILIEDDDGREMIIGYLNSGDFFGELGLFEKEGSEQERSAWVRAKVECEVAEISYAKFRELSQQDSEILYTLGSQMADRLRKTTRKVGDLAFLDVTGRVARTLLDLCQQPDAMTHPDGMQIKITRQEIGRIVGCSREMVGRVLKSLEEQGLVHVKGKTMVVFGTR
Assay: EMSA
Conditions: + cAMP (10 uM in legend, 20 uM in Methods); recombinant protein; protein details: C-terminal His (pET-28b); label: biotin 3' end

AACAGCCGCCGGGTTCGCTGCCGTCTAGGCAGAACCACCCTCCCCATCCCACTACCAAACATCCGAATATAAAGTTCCTACCCCGCCCGCCAGCCTCGCCCGTCCACGACAATGTGCCTCGCTTGGAAGCTCACGCTCCTCACACAGACGAAAACGGGGTAGCGGCAATCGGCCATATCCGCTAAACAGTTGCCTTGGCGCAGAATTCGATAGATCCGATAGGGACAGGCCACGGTCAAC (double strand) [Pcas1]
binding result: binds
